{"source": "paper PMC10057394", "about": "“Exploring the Antitubercular Activity of Anthranilic Acid Derivatives: From MabA (FabG1) Inhibition to Intrabacterial Acidification” (Pharmaceuticals, 2023)", "test_system": "H37Rv", "assay": "Selection of spontaneous resistance mutants", "data": [{"compound": "O=C(Nc1ccc(C#CC2CC2)cc1C(=O)O)c1ccc(Cl)c(Cl)c1", "note": "[Compound 16, 5-(2-cyclopropylethynyl)-2-[(3,4-dichlorobenzoyl)amino]benzoic Acid]", "values": [{"measurement": "outcome of selection of spontaneous resistance mutants", "setting": "at 2× MIC", "result": "bacterial lawn"}, {"measurement": "outcome of selection of spontaneous resistance mutants", "setting": "at 3× MIC", "result": "lack of resistant colonies"}]}]}
